Results of unrelated studies side by side (data: NIAID ChemDB).

All rows: cytotoxicity tests; cells: CEM; read-out: CC50

CCn is the concentration with n% toxicity to the cells.

{"structure": "Cc1occc1C(=O)Nc1ccc(Cl)c(C(=O)OC(C)C)c1", "value": "3.8 µg/mL"}
{"structure": "CCCCCCOC(=O)CCCCCC(=O)O", "value": ">100 µg/mL"}
{"structure": "Cc1sccc1C(=S)Nc1ccc(Cl)c(OCC(C)(C)C)c1", "value": "6.2 µg/mL"}
{"structure": "CCc1c(Sc2cc(C)cc(C)c2)n(COCc2ccccc2)c(=O)[nH]c1=O", "value": ">100 µM"}
{"structure": "NC(=O)c1ccc(NC(=O)c2ccccc2SSc2ccccc2C(=O)Nc2ccc(C(N)=O)cc2)cc1", "value": ">100 µM"}
{"structure": "CCOC(=O)c1cc(NC(=S)c2ccoc2C)ccc1C", "value": "16 µg/mL"}
{"structure": "Cc1c(Cc2cccc3ccccc23)n(COCCO)c(=O)[nH]c1=O", "value": "125 µM"}
{"structure": "O=C(Nc1ccc(S(=O)(=O)Nc2ncccn2)cc1)c1ccccc1SSc1ccccc1C(=O)Nc1ccc(S(=O)(=O)Nc2ncccn2)cc1", "value": "30 µM"}
{"structure": "Cc1occc1C(=S)Nc1ccc(Cl)c(OC(=O)OC(C)C)c1", "value": "25 µg/mL"}
{"structure": "Nc1ccc(NC(=O)c2ccccc2SSc2ccccc2C(=O)Nc2ccc(N)cc2)cc1", "value": "8 µM"}
{"structure": "O=C(O)CCCCCCCCc1ncc[nH]1", "value": ">500 µg/mL"}
{"structure": "COc1cc(OC[C@H]2CC[C@@H](CO)O2)nc(N)n1", "value": ">50 µM"}
{"structure": "COc1ccc(C(=O)/C=C/c2cc3ccc(Cl)c(C)c3nc2Cl)cc1OC", "method": "MTT", "value": "39.7 µM"}
{"structure": "CC(=O)Nc1ccc(SSc2ccc(NC(C)=O)cc2C(N)=O)c(C(N)=O)c1", "value": ">120 µM"}
{"structure": "Cc1cc(/C=C/c2cc3ccc(Cl)c(C)c3nc2Cl)c(C)s1", "method": "MTT", "value": "70.09 µM"}
{"structure": "C=C(C)[C@@H]1CC[C@]2(C(=O)NCCCCCCCC(=O)NCC(=O)O)CC[C@]3(C)[C@H](CC[C@@H]4[C@@]5(C)CC[C@H](O)C(C)(C)[C@@H]5CC[C@]43C)[C@@H]12", "value": ">3 µM"}
{"structure": "Nc1cc(OC[C@H]2CC[C@@H](CO)O2)ncn1", "value": ">250 µM"}
{"structure": "CCOCn1c(Cc2ccccc2)c(CC)c(=O)[nH]c1=O", "value": "≥100 µM"}
{"structure": "Cc1cc(-c2ccc(N=Nc3ccc4c(S(=O)(=O)O)cc(S(=O)(=O)O)c(N)c4c3O)c(C)c2)ccc1N=Nc1ccc2c(S(=O)(=O)O)cc(S(=O)(=O)O)c(N)c2c1O", "value": "57 µM"}
{"structure": "CC(C)c1c(Sc2ccccc2)n(COCCO)c(=S)[nH]c1=O", "value": ">100 µM"}
{"structure": "Nc1ccc2cc(S(=O)(=O)O)cc(O)c2c1N=Nc1ccc(NC(=O)Nc2ccc(N=Nc3c(N)ccc4cc(S(=O)(=O)O)cc(O)c34)c(S(=O)(=O)O)c2)cc1S(=O)(=O)O", "value": ">190 µM"}
{"structure": "O=C(O)CCCCCCCCCCCCn1nccn1", "value": "22 µg/mL"}
{"structure": "COc1cc(OC[C@H]2CC[C@@H](COCc3ccccc3)O2)nc(N)n1", "value": "52 µM"}
{"structure": "Cc1occc1C(=S)Nc1ccc(Cl)c(C(=O)OC(C)C2CC2)c1", "value": "17 µg/mL"}
{"structure": "Cc1c(Cl)ccc2cc(/C=C/c3csc(Cl)c3)c(Cl)nc12", "method": "MTT", "value": "28.9 µM"}
{"structure": "CCOCn1c(Cc2ccc3ccccc3c2)c(C)c(=O)[nH]c1=O", "value": "97.2 µM"}
{"structure": "CC(C)c1c(Sc2ccccc2)n(COCc2ccccc2)c(=O)[nH]c1=O", "value": ">100 µM"}
{"structure": "Cc1sccc1C(=S)Nc1ccc(Cl)c(C(=O)OC2CCCCC2)c1", "value": "15 µg/mL"}
{"structure": "Nc1ccn([C@@H]2C=C(F)[C@H](CO)O2)c(=O)n1", "value": ">100 µM"}
{"structure": "NC(=O)c1ccccc1SSc1ccccc1C(N)=O", "value": "21 µM"}
{"structure": "Nc1ccn([C@H]2C=C(F)[C@@H](CO)O2)c(=O)n1", "value": ">100 µM"}
{"structure": "Cc1occc1C(=S)Nc1ccc(Cl)c(OCC(C)(C)C)c1", "value": "4.1 µg/mL"}
{"structure": "C=C(C)[C@@H]1CC[C@]2(C(=O)NCCCCCCCCCCC(=O)O)CC[C@]3(C)[C@H](CC[C@@H]4[C@@]5(C)CC[C@H](O)C(C)(C)[C@@H]5CC[C@]43C)[C@@H]12", "value": ">3 µM"}
{"structure": "C=CCO/N=C/c1cc(NC(=S)c2ccoc2C)ccc1Cl", "value": "12 µg/mL"}
{"structure": "Cc1c(Cl)ccc2cc(/C=C/C(=O)c3cccc(Br)c3)c(Cl)nc12", "method": "MTT", "value": "47.01 µM"}
{"structure": "CC(=O)Nc1ccc(C=Cc2ccc(NC(=O)Nc3ccc(C=Cc4ccc(NC(C)=O)cc4S(=O)(=O)O)c(S(=O)(=O)O)c3)cc2S(=O)(=O)O)c(S(=O)(=O)O)c1", "value": "18 µM"}
{"structure": "C=C(C)[C@@H]1CC[C@]2(C(=O)NCCCCCCCC(=O)N[C@@H](CCCCN)C(=O)O)CC[C@]3(C)[C@H](CC[C@@H]4[C@@]5(C)CC[C@H](O)C(C)(C)[C@@H]5CC[C@]43C)[C@@H]12", "value": ">3 µM"}
{"structure": "Nc1nc(OC[C@H]2CC[C@@H](CO)O2)c2[nH]cnc2n1", "value": ">250 µM"}
{"structure": "CCCNC(=O)CCCCCCCCC(=O)O", "value": ">100 µg/mL"}
{"structure": "Cc1c(Cl)ccc2cc(/C=C/c3cccc4c3OCCO4)c(Cl)nc12", "method": "MTT", "value": "100 µM"}
{"structure": "Nc1ccn([C@@H]2S[C@H](CO)C=C2F)c(=O)n1", "value": ">100 µM"}
{"structure": "C=C(C)[C@@H]1CC[C@]2(C(=O)NCCCCCCCC(=O)N[C@@H](CC(N)=O)C(=O)O)CC[C@]3(C)[C@H](CC[C@@H]4[C@@]5(C)CC[C@H](O)C(C)(C)[C@@H]5CC[C@]43C)[C@@H]12", "value": ">3 µM"}
{"structure": "Cc1occc1C(=S)Nc1ccc(Cl)c(C(=O)OCC(F)(F)F)c1", "value": ">100 µg/mL"}
{"structure": "O=C(c1c(O)cc(O)cc1O)c1c(-c2ccc(O)cc2)oc2cc(O)c3c(c12)O[C@H](c1ccc(O)cc1)[C@@H](O)C3", "value": "111–147 µM"}
{"structure": "CCOCn1c(Cc2cccc3ccccc23)c(CC)c(=O)[nH]c1=O", "value": "88.4 µM"}
{"structure": "COc1cc(-c2ccc(N=Nc3ccc4c(S(=O)(=O)O)cc(S(=O)(=O)O)c(N)c4c3O)c(OC)c2)ccc1N=Nc1ccc2c(S(=O)(=O)O)cc(S(=O)(=O)O)c(N)c2c1O", "value": ">100 µM"}
{"structure": "CCCCC(=O)NCCCCCCCC(=O)O", "value": ">100 µg/mL"}
{"structure": "C=CCOc1cc(NC(=S)c2sccc2C)ccc1C#N", "value": "3.6 µg/mL"}
{"structure": "C=C(C)[C@@H]1CC[C@]2(C(=O)NCCCCCCCC(=O)N3CCCC(C(=O)O)C3)CC[C@]3(C)[C@H](CC[C@@H]4[C@@]5(C)CC[C@H](O)C(C)(C)[C@@H]5CC[C@]43C)[C@@H]12", "value": ">3 µM"}
{"structure": "Nc1nc(N)nc(OC[C@H]2CC[C@@H](COc3nc(N)nc(N)n3)O2)n1", "value": ">50 µM"}
{"structure": "CCOC(=O)CSc1cc(NC(=S)c2ccoc2C)ccc1Cl", "value": "≥100 µg/mL"}
{"structure": "CCCCCCCCCCOC(=O)CC(=O)O", "value": "32 µg/mL"}
{"structure": "Cc1occc1C(=O)Nc1ccc(Cl)c(C(=O)OC(C)C2CC2)c1", "value": "44 µg/mL"}
{"structure": "C=C(C)[C@@H]1CC[C@]2(C(=O)NCCCCCCCC(=O)N[C@@H](CC(=O)O)C(=O)O)CC[C@]3(C)[C@H](CC[C@@H]4[C@@]5(C)CC[C@H](O)C(C)(C)[C@@H]5CC[C@]43C)[C@@H]12", "value": ">3 µM"}
{"structure": "Nc1cc(OCC2O[C@H](COCc3ccccc3)[C@@H](OCc3ccccc3)[C@H]2OCc2ccccc2)nc(N)n1", "value": "23 µM"}
{"structure": "Cc1occc1C(=S)Nc1ccc(Cl)c(C(=O)OCC(C)C)c1", "value": "8.5 µg/mL"}
{"structure": "c1ccc(COC[C@H]2CC[C@@H](COc3cc(OC[C@H]4CC[C@@H](COCc5ccccc5)O4)ncn3)O2)cc1", "value": "21 µM"}
{"structure": "C=CCOC(=O)c1cc(NC(=S)c2ccoc2C)ccc1Cl", "value": "11 µg/mL"}
{"structure": "C=C(C)[C@@H]1CC[C@]2(C(=O)NCCCCCCCC(=O)Nc3ccccc3C(=O)O)CC[C@]3(C)[C@H](CC[C@@H]4[C@@]5(C)CC[C@H](O)C(C)(C)[C@@H]5CC[C@]43C)[C@@H]12", "value": ">3 µM"}

A second listing of 3 rows from above:

structure,method,value
CCCCC(=O)NCCCCCCCC(=O)O,,>100 µg/mL
CCOC(=O)CSc1cc(NC(=S)c2ccoc2C)ccc1Cl,,≥100 µg/mL
CCCCCCCCCCOC(=O)CC(=O)O,,32 µg/mL

Lines come from different laboratories, so protocols vary. Blank or dashed fields: not listed here. Two numbers with a dash give a range or band.